Target: SC1918 HA (baculovirus-expressed, for crystallization) (influenza A virus A/South Carolina/1/18 (H1N1)) (UniProt Q9WFX3)
Test: crystal structure

1F1 Fab
stoichiometry N (Fabs per HA trimer): 3

From paper PMC3516549, “Influenza Human Monoclonal Antibody 1F1 Interacts with Three Major Antigenic Sites and Residues Mediating Human Receptor Specificity in H1N1 Viruses” (2012)
